Pooled drug test results. Numbers come from NIAID ChemDB, via PubChem.

Shared fields: host cell toxicity; measure: CC50

a–b is a range or a potency band. An empty or dashed field is not shown. CCn is the concentration with n% toxicity to the cells. Lines come from different laboratories, so protocols vary.

SMILES | read by | cell line | result
CC(C)N(Cc1cccc(OCCCCCC(=O)OC(=O)O)c1)C(=O)c1ccc(-c2ccncc2)cc1 | - | BJ | >20 µM
CCCCN1C(c2sc(C)nc2C)=NNC1SC | MTT | 143B | >100 µM
O=c1[nH]c(=O)n([C@@H]2O[C@H](CO)[C@@H](O)[C@@H]2O)cc1/C=C/Br | - | HELF | >800 µg/mL
CCOC(=O)CCCCOc1ccccc1NC(C)C | - | HEK 293 | >20 µM
Cc1cn([C@@H]2O[C@H](CO)[C@@H](O)[C@@H]2F)c(=O)[nH]c1=O | - | HELF | 3 µg/mL
Cn1c(=O)cc(Sc2ccc(Cl)cc2)c2ccccc21 | - | Huh-Luc-Neo | >100 µM
COc1cc(OC)cc(N(C)c2cc(OP(=O)(O)OP(=O)(O)O)c(N)cc2C(=O)O)c1 | - | Huh 5-2 | >50 µg/mL
N=C(N)c1ccc(-c2cc(-c3ccc(C(=N)N)nc3)on2)cc1 | resazurin | L6 rat myoblasts | >180 µM
O=c1[nH]c(=O)n([C@@H]2O[C@H](CO)[C@@H](O)[C@@H]2F)cc1/C=C/I | - | Human lymphoblasts | 100 µM
CC(=O)O[C@@H](C/C=C(\C)C(=O)O)[C@@H](C)[C@H]1CC[C@@]2(C)C3=C(CC[C@]12C)[C@@]1(C)CCC(=O)C(C)(C)C1CC3 | resazurin | NCI-H187 | 18.57 µg/mL
CSC1NN=C(c2sc(C)nc2C)N1C1C2CC3CC(C2)CC1C3 | MTT | KBALB | <100 µM
O=c1[nH]c(=S)ccn1[C@@H]1O[C@H](COP(=O)(O)O)[C@@H](O)[C@H]1O | XTT | MAGI | >200 µM
C=CCNC(=S)N=Nc1c(O)n(CN2CCCCC2)c2ccc([N+](=O)[O-])cc12 | - | MDBK | 16 µg/mL
N#Cc1ccc(Nc2cc(Oc3ccc(C#N)cc3)c3ccccc3n2)cc1 | MTT | HuCCA-1 | ≥50 µg/mL
CCOC(=O)/C=C1\NCCc2cc3c(cc21)OCO3 | - | HEK 293 | <7.5 µM
Cc1ccc2c(c1)c(Sc1ccc(F)cc1)cc(=O)n2C | - | Huh-Luc-Neo | 10–100 µM
Fc1cccc(F)c1Cn1ccc2nc(-c3c(F)cccc3F)nc-2c1 | - | MDBK | >83.3 µg/mL
CCN(CC)Cc1[nH]c(CNc2ccnc3cc(Cl)ccc23)nc1-c1ccc(Cl)cc1 | MTT | HMEC-1 | 2.442 µM
CCCCN1C(c2sc(C)nc2C)=NNC1SCc1ccc(C(F)(F)F)cc1 | MTT | KBALB | >100 µM
Nc1nc2c(ncn2[C@@H]2O[C@H](CO)[C@@H](F)[C@H]2O)c(=O)[nH]1 | - | VERO B | >400 µg/mL
C=Cc1cn([C@@H]2O[C@H](CO)[C@@H](O)[C@@H]2O)c(=O)[nH]c1=O | - | HELF | >1000 µM
Cc1cc(C#N)cc(C)c1Oc1cc(Oc2c(C)cc(C#N)cc2C)c2ccccc2n1 | XTT | MOLT-3 | ≥50 µg/mL
C[N+](C)(C)C(Cc1c[nH]c2ccccc12)C(=O)[O-] | resazurin | NCI-H187 | >50 µg/mL
CS[C@@]1(Cc2ccccc2O)NC(=O)/C(=C/c2ccccc2)NC1=O | luminescence | 293T | >100 µM
Nc1nc(=O)n([C@@H]2O[C@H](CO)[C@@H](O)[C@@H]2F)cc1I | - | HELF | 10 µg/mL
Nc1nc2c(ncn2[C@@H]2S[C@H](CO)[C@@H](O)[C@@H]2F)c(=O)[nH]1 | - | CCRF-HSB-2 | 11.9 µM
CS(=N)(=O)c1ccc(C(=O)NC23CC(c4nc5ccc(Cl)cc5o4)(C2)C3)o1 | absorbance | Primary human hepatocytes | >100 µg/mL
Clc1ccc(-c2nc3ccn(Cc4ccc(Br)cc4)cc-3n2)cc1 | - | MDBK | >100 µg/mL
O=C1Nc2ccc([N+](=O)[O-])cc2/C1=N/N=C1/SCC(=O)N1C1CCCCC1 | - | MDBK | 3 µg/mL
Fc1cccc(-c2nc3ccn(Cc4ccc(F)cc4F)cc-3n2)c1 | - | MDBK | 20 µg/mL
O=C(Nc1nc2ccc(C(F)(F)F)cc2s1)c1cnc(C(F)(F)F)s1 | flow cytometry | CEM-GXR | 12.1 µM
CC(=O)O[C@@H](C/C=C(\C)C(=O)O)[C@@H](C)[C@H]1CC[C@@]2(C)C3=C(CC[C@]12C)[C@@]1(C)CC[C@@H](O)C(C)(C)C1CC3 | resazurin | NCI-H187 | 34.15 µg/mL
CS[C@@]12CC3C(=O)CC[C@H](O)[C@H]3N1C(=O)[C@@]13C[C@@H]4[C@@H]([C@@H](O)[C@@H](C[C@@H]4O)S1)N3C2=O | luminescence | 293T | >100 µM
Cc1ccc(Sc2cc(=O)n(C)c3ccc(C)cc23)cc1 | - | Huh-Luc-Neo | 10–100 µM
Clc1ccc2c(NCc3ccc(CN4CCCC4)s3)ccnc2c1 | MTT | HMEC-1 | 24.2 µM
O=c1[nH]c(=O)n([C@@H]2O[C@H](CO)[C@@H](O)[C@@H]2F)cc1/C=C/Br | - | CCRF-HSB-2 | >285 µM
O=[N+]([O-])c1ccc2c(c1)c(N=NC(=S)NC1CCCCC1)c(O)n2CN1CCCCC1 | - | MDBK | 21 µg/mL
Nc1nc(N)c2ncn([C@@H]3O[C@H](CO)[C@@H](O)[C@@H]3O)c2n1 | - | CCRF-HSB-2 | 6 µM
COc1ccccc1-c1cc(=O)c2ccccc2o1 | MTS / absorbance | CHO | 25.5 µM
Nc1ccn([C@H]2CC[C@@H](CO)O2)c(=O)n1 | - | PBLC | 43 µg/mL
CCc1cn([C@@H]2O[C@H](CO)[C@@H](O)[C@@H]2O)c(=O)[nH]c1=O | - | HELF | >800 µg/mL
CCOc1ccc(Br)cc1-c1oc2ccccc2c(=O)c1O | MTS / absorbance | CHO | 25.5 µM
Cn1c(=O)cc(Sc2ccccc2F)c2ccccc21 | - | Huh-Luc-Neo | 10–100 µM
COc1ccc(CSC2NN=C(c3sc(C)nc3C)N2C23CC4CC(CC(C4)C2)C3)cc1 | MTT | KBALB | >100 µM
Cc1cn([C@@H]2O[C@H](CO)[C@@H](O)[C@@H]2F)c(=O)[nH]c1=O | - | CCRF-HSB-2 | 1.73 µM
Cn1c(=O)cc(Sc2c(Cl)cccc2Cl)c2ccccc21 | - | Huh-Luc-Neo | >100 µM
O=C(c1ccc2ccccc2n1)N1CCCC1 | WST | THP-1 | >100 µM
COc1ccc(Br)cc1-c1cc(=O)c2c(O)cccc2o1 | MTS / absorbance | CHO | 25.5 µM
Clc1ccc2c(NCc3ncc(-c4ccc(N5CCCC5)cc4)[nH]3)ccnc2c1 | MTT | HMEC-1 | 2.426 µM
Nc1nc(=O)n([C@@H]2O[C@H](CO)[C@@H](O)[C@@H]2F)cc1I | - | Human lymphoblasts | 8.6 µM
Nc1nc2c(ncn2COCCP(=O)(N2CCOCC2)N2CCOCC2)c(=O)[nH]1 | trypan blue | VERO E6 | >2000 µM
COc1ccc(Br)cc1-c1cc(=O)c2c(OCc3ccccc3)cccc2o1 | MTS / absorbance | CHO | 25.5 µM
CC(=O)N[C@@H](CSC(=O)[C@]1([C@@H](O)CC(C)C)NC(=O)[C@H](C)[C@@H]1O)C(=O)O | - | HELF | 57 µM
Cn1cc(-c2ccccc2)nc1CNc1ccnc2cc(Cl)ccc12 | MTT | HMEC-1 | 17.5 µM
[N-]=[N+]=N[C@H]1[C@@H](F)[C@H](n2cnc3c(N)ncnc32)O[C@@H]1CO | - | VERO B | >400 µg/mL
Cc1cn([C@@H]2O[C@H](CO)[C@@H](O)[C@@H]2O)c(=O)[nH]c1=O | - | HELF | 100 µg/mL
COc1cc(Br)cc(-c2oc3ccccc3c(=O)c2O)c1OC | MTS / absorbance | CHO | 25.5 µM
CS[C@@]12CC3=CC=C[C@H](O)[C@H]3N1C(=O)[C@]13C[C@H]4C(=O)[C@H](C[C@H](O)[C@H]4N1C2=O)S3 | luminescence | 293T | >100 µM
CC(C)N(Cc1cccc(OCCCCCC(=O)OC(=O)O)c1)C(=O)c1ccc(-c2c[nH]c3ccccc23)cc1 | - | HEK 293 | >20 µM
O=c1nc(Nc2ccc(-c3cnc4ccccc4c3)cc2)c2cccnc2n1O | - | PM1 | 2.1 µM
Cc1cn([C@H]2S[C@@H](CO)[C@H](O)[C@H]2F)c(=O)[nH]c1=O | - | CCRF-HSB-2 | 2.5 µM
Cc1ccccc1Cn1ccc2nc(-c3ccccc3)nc-2c1 | - | MDBK | 55 µg/mL
O=S(=O)(Cc1c(Cl)c(Cl)c(Cl)c(Cl)c1Cl)c1cccc[n+]1[O-] | MTT | U1 | 27 µg/mL
Cc1nc(C)c(-c2n[nH]c(=S)n2C23CC4CC(CC(C4)C2)C3)s1 | MTT | 143B | >100 µM
Cc1ccc2c(c1)c(Sc1ccc(N)cc1)cc(=O)n2C | - | Huh-Luc-Neo | >100 µM
O=c1[nH]c(=O)n([C@@H]2O[C@H](CO)[C@@H](O)[C@@H]2F)cc1/C=C/Br | - | Human lymphoblasts | 100 µM
CS[C@@]1(Cc2ccccc2)NC(=O)[C@@](O)(Cc2ccccc2)NC1=O | luminescence | 293T | >100 µM

For reference, 6 entries again:

| SMILES | read by | cell line | result |
|---|---|---|---|
| CCOc1ccc(Br)cc1-c1oc2ccccc2c(=O)c1O | MTS / absorbance | CHO | 25.5 µM |
| C=Cc1cn([C@@H]2O[C@H](CO)[C@@H](O)[C@@H]2O)c(=O)[nH]c1=O | - | HELF | >1000 µM |
| CS[C@@]12CC3C(=O)CC[C@H](O)[C@H]3N1C(=O)[C@@]13C[C@@H]4[C@@H]([C@@H](O)[C@@H](C[C@@H]4O)S1)N3C2=O | luminescence | 293T | >100 µM |
| CC(C)N(Cc1cccc(OCCCCCC(=O)OC(=O)O)c1)C(=O)c1ccc(-c2c[nH]c3ccccc23)cc1 | - | HEK 293 | >20 µM |
| Nc1nc2c(ncn2[C@@H]2S[C@H](CO)[C@@H](O)[C@@H]2F)c(=O)[nH]1 | - | CCRF-HSB-2 | 11.9 µM |
| CC(=O)N[C@@H](CSC(=O)[C@]1([C@@H](O)CC(C)C)NC(=O)[C@H](C)[C@@H]1O)C(=O)O | - | HELF | 57 µM |